Results: patent publication US20240166684A1 (priority 2021, published 2024)

Assays:
PrP^C = experiment: Western blot of steady-state PrP^C levels in differentiated ReN VM cells; details: ReN VM cells expressing mutant CG-resistant ATP1A1 (r/r)
ATP1A3 = experiment: Western blot of steady-state ATP1A3 levels in differentiated ReN VM cells; format: cell-based, human; details: ReN VM ATP1A1 r/r cells
ATP1A2 = experiment: Western blot of steady-state ATP1A2 levels in differentiated ReN VM cells; format: cell-based, human; details: ReN VM ATP1A1 r/r cells
ATP1A1 = experiment: Western blot of steady-state ATP1A1 levels in differentiated ReN VM cells; format: cell-based, human; details: ReN VM cells expressing mutant CG-resistant ATP1A1 (r/r)

SMILES	change of PrP^C levels in CG-resistant cells (PrP^C)	change of ATP1A3 levels in CG-resistant cells (ATP1A3)	change of ATP1A2 levels in CG-resistant cells (ATP1A2)	change of ATP1A1 levels in CG-resistant cells (ATP1A1)
COC1C[C@H](O[C@H]2CC[C@]3(C)C4CC[C@]5(C)[C@@H](C6=CC(=O)OC6)[C@@H](OC(C)=O)C[C@]5(O)[C@@H]4CC[C@@H]3C2)OC(C)C1=O (stereo partly drawn) [I-3, 4′-dehydro-oleandrin]	no exemplary compound I-3-mediated reduction in PrP^C levels was observed	prevented changes	prevented changes	precluded the changes in steady-state levels of ATP1A1
COC1C[C@H](O[C@H]2CC[C@]3(C)C4CC[C@]5(C)[C@@H](C6=CC(=O)OC6)[C@@H](OC(C)=O)C[C@]5(O)[C@@H]4CC[C@@H]3C2)OC(C)[C@@H]1O (stereo partly drawn) [oleandrin, acetic acid [(3S,5R,10S,13R,14S,16S,17′R)-14-hydroxy-3-[[(2R,4S,5S,6S)-5-hydroxy-4-methoxy-6-methyl-2-tetrahydropyranyl]oxy]-10,13-dimethyl-17-(5-oxo-2H-furan-3-yl)-1,2,3,4,5,6,7,8,9,11,12,15,16,17-tetradecahydrocyclopenta[a]phenanthren-16-yl] ester]	neither the changes in ATP1A1 nor in PrP^C levels were observed	–	–	neither the changes in ATP1A1 nor in PrP^C levels were observed
